Record: PubChem BioAssay AID504761 (Drosophila RNAi Screening Center, 2011)
Screen: 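Genome-wide fly cell screen for genes dengue virus requires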 (primary screen). Cell system: D.Mel-2 cells from Drosophila. Reagents: long dsRNA against Drosophila genes. Treatment: infection with dengue virus type 2; dose and infection time not stated. Measurement: 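Per well on two replicate plates, imaging gave the percent of cells positive for viral envelope protein, ranked by infection, and a nuclear count of cells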. Direction: infection score: higher = more virus-infected cells; cell count: higher = more cells in the well. Active means: 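Very low infection ranking in both replicate wells (chance probability at most 0.065), then a retest showing infection dropped 1.5-fold or more at p below 0.05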. Calls: active = confirmed: knock-down lowers infection; inactive = not picked or not confirmed.
In all, the deposit lists about 22,000 reagents; below is a random part of those with a known target gene and a result. Over the whole deposit, 116 (0.52%) were called active. 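Calls depend on retest data that are not deposited; infection was ranked per plate without normalising between plates; the unit of the infection score is not given.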 The raw values are shown without normalisation. A plus sign joins genes that one reagent is predicted to hit. Not all columns of the deposit are shown. Reagent sequences are not shown. Not given: the amount of reagent, the time to read-out.

Depletion of Eglp3 [SID104184085] resulted in: infection score, replicate 1 = 4.21; cell count, replicate 1 = 6682; inactive.
Eglp3 [SID104204174] scored infection score, replicate 1 = 4.16; cell count, replicate 1 = 6157; inactive.
Silencing of eIF4E1 [SID104191134] gave: infection score, replicate 1 = 12.2; cell count, replicate 1 = 4343; inactive.
For eIF4E1 [SID104202806], the entry reads infection score, replicate 1 = 9.86; cell count, replicate 1 = 4878; inactive.
With knock-down of Snp [SID104184316], the screen gave infection score, replicate 1 = 4.21; cell count, replicate 1 = 6682; inactive.
For Snp [SID104201255], the entry reads infection score, replicate 1 = 0.82; cell count, replicate 1 = 5591; inactive.
Knock-down of Rab9D + Rab9E + Rab9Db + 1 more [SID104205847] came out at: infection score, replicate 1 = 20.2; cell count, replicate 1 = 5621; inactive.
After knock-down of CG18302 [SID104182455], the screen gave infection score, replicate 1 = 5.17; cell count, replicate 1 = 5827; inactive.
Against CG18302 [SID104207862], the entry reads infection score, replicate 1 = 0.34; cell count, replicate 1 = 290; inactive.
For CG32160 (retired record) [SID104202263], the entry reads infection score, replicate 1 = 3.98; cell count, replicate 1 = 6179; inactive.
Against CG5708 [SID104182673], the values are infection score, replicate 1 = 1.06; cell count, replicate 1 = 6978; inactive.
With knock-down of per [SID104198610], the screen gave infection score, replicate 1 = 8.75; cell count, replicate 1 = 5712; inactive.
Against per [SID104205123], the entry reads infection score, replicate 1 = 11.1; cell count, replicate 1 = 5812; inactive.

Records above whose gene name starts with C or c:
CG18302 [SID104182455]: infection score, replicate 1 = 5.17; cell count, replicate 1 = 5827; call = inactive
CG18302 [SID104207862]: infection score, replicate 1 = 0.34; cell count, replicate 1 = 290; call = inactive
CG32160 (retired record) [SID104202263]: infection score, replicate 1 = 3.98; cell count, replicate 1 = 6179; call = inactive
CG5708 [SID104182673]: infection score, replicate 1 = 1.06; cell count, replicate 1 = 6978; call = inactive
